In the assay the target is triple mutant toxin B (D286A/D288A/C698A), genetic, not chemically treated (Clostridium difficile strain 630 …). Description: dot blot; None, Triple mutant TcdB.

B1: B59-3 mAb (antibody, V domains shown)
VH: QVQLQQPGAELVKPGASVKLSCKASGYTFTSYWMHWVKQRPGQGLEWIGVINPSNGRSTYSEKFKTTATVTVDKSSSTAYMQLSILTSEDSAVYYCARAYYSTSYYAMDYWGQGTSVTVSS
VL: VLMTQSPLSLPVSLGDQASISCRSSQNIVHSNGNTYLEWYLQKPGQSPKLLIYKVSNRFSGVPDRFSGSGSGTYFTLKISRVEAEDLGVYYCFQGSHFPFTFGTGTKLEIKR
Consider B1, for which the binding result is on record as “binds”.

B2: B8-26 mAb (antibody, V domains shown)
VH: QVQLQQPGAELVKPGAPVKLSCKASGYSFTSYWMNWVKQRPGRGLEWIGRIDPSNSEIYYNQKFKDKATLTVDKSSSTAYIQLSSLTSEDSAVYYCASGHYGSIFAYWGQGTTLTVSS
VL: VQITQSPSYLAASPGETITINCRASKSISKYLAWYQEKPGKTNKLLLYSGSTLQSGIPSRFSGSRSGTDFTLIISSLEPEDSAMYYCQQHNEYPLTFGAGTKLELKR
Turning to B2, the binding result is “binds”.

These data come from patent publication USRE46376 (Wyeth LLC, dated 2017).
